# Patent publication US12227512B2, “Benzimidazoles and methods of using same” (priority 2019, dated 2025)
# What was measured:
# SARS-CoV-2 = SARS-CoV-2 nucleocapsid protein (Western blot) and viral RNA in infected Vero cells; details: 24 hours post-infection
# RNA virus = test: Inhibition of RNA virus replication (FIG. 1)
smiles,measurement,setting,value
CN(C)CCCn1c(N)nc2ccc3c(c21)CC(CN(C)C)O3 (stereo not shown),SARS-CoV-2 viral RNA,SARS-CoV-2,decreased
same,relative potency versus BCX4430,RNA virus; Zika,80 fold
same,activity difference between E1 and E2 isomers,"RNA virus; depending on the virus and the assay conditions, E2 has the lower EC50",10-100 fold
same,potency relative to BCX4430,RNA virus; diverse sampling of therapeutically relevant viruses,10-100 fold
